Results of unrelated studies side by side (data: NIAID ChemDB).

All rows: whole-cell or culture tests; organism: HIV-1; read by: XTT; measure: EC50

Rows are shuffled and stem from different studies.

CC(C)=CCN1Cc2cccc3[nH]c(=S)n(c23)C[C@@H]1C ; changes: RT-T139I ; strain or isolate: Calanolide A-resistant (RT T139I) ; cell line: CEM + CEM-SS ; value: 0.4 µM
Cc1cn([C@H]2C[C@H](N=[N+]=[N-])[C@@H](CO)O2)c(=O)[nH]c1=O ; strain or isolate: LAI ; cell line: PBMC ; value: 0.01 µM
NC(N)=NC(N)=Nc1cccc(S(=O)(=O)c2cccc(N=C(N)N=C(N)N)c2)c1 ; strain or isolate: RF ; cell line: CEM + CEM-SS ; value: >100 µg/mL
C=C(COCP(=O)(O)O)C(C)n1ccc(=O)[nH]c1=O ; cell line: CEM ; value: 26.9 µM
CCc1c(Sc2ccccn2)n(COCc2ccccc2)c(=O)[nH]c1=O ; cell line: CEM ; value: 0.0009 µM
Cc1cn([C@H]2C[C@H](N=[N+]=[N-])[C@@H](CO)O2)c(=O)[nH]c1=O ; strain or isolate: IIIB ; cell line: MT-2 ; value: 0.04 µM
CCCc1cc(=O)oc2c3c(c4c(c12)OC(C)(C)C=C4)O[C@@H](C)[C@H](C)[C@@H]3O ; strain or isolate: RF ; cell line: CEM + CEM-SS ; value: 0.3 µM
Nc1nc2c(ncn2C[C@H](CCF)OCP(=O)(O)O)c(=O)[nH]1 ; strain or isolate: BRU ; cell line: CEM ; value: >100 µM
COc1cc([C@@H]2c3cc4c(cc3[C@H](O)[C@H]3COC(=O)[C@@H]23)OCO4)cc(OC)c1OC ; strain or isolate: IIIB ; cell line: MT-2 ; value: >0.01 µg/mL
CN1N=C(N)c2cn([C@@H]3O[C@H](COP(=O)(O)O)[C@@H](O)[C@H]3O)c3ncnc1c23 ; strain or isolate: 214 ; cell line: CEM + CEM-SS ; value: 0.08 µM
C[C@H](Cn1cnc2c(N)ncnc21)OCP(=O)(O)O ; strain or isolate: HXB2D ; cell line: MT-2 ; value: 7 µM
Nc1nc2c(ncn2C[C@@H](CCO)OCP(=O)(O)O)c(=O)[nH]1 ; strain or isolate: BRU ; cell line: CEM ; value: >100 µM
CC1(CO)COC(c2c[nH]c3c(N)ncnc23)C1 ; cell line: CEM ; value: 5.1 µg/mL
Cc1cn([C@H]2C[C@H](N=[N+]=[N-])[C@@H](CO)O2)c(=O)[nH]c1=O ; cell line: CEM ; value: 0.01 µM
CCCc1cc(=O)oc2c3c(c4c(c12)OC(C)(C)C=C4)O[C@H](C)[C@@H](C)[C@@H]3O ; strain or isolate: RF ; cell line: CEM + CEM-SS ; value: 0.13 µM
CC(n1cnc2c(N)ncnc21)C1(COCP(=O)(O)O)CC1 ; cell line: CEM ; value: 10.6 µM
O=S(=O)(SC(Cl)(Cl)Cl)c1cccc(S(=O)(=O)c2cccc(S(=O)(=O)SC(Cl)(Cl)Cl)c2)c1 ; strain or isolate: RF ; cell line: CEM + CEM-SS ; value: >100 µg/mL
Cc1cn([C@H]2C=C[C@@H](OCP(=O)(O)O)O2)c(=O)[nH]c1=O ; strain or isolate: IIIB ; cell line: MT-2 ; value: 26 µM
COc1cc(C[C@H]2C(=O)OC[C@@H]2Cc2ccc(OC)c(OC)c2)ccc1O ; strain or isolate: IIIB ; cell line: MT-2 ; value: 0.1 µg/mL
Nc1ncc(C2C=CC(CO)(CO)C2)c(=O)[nH]1 ; cell line: CEM ; value: 66.2 µM
Nc1ncnc2c1ncn2CCOCP(=O)(O)O ; strain or isolate: HXB2D ; cell line: MT-2 ; value: 10 µM
CNC(=O)[C@H](Cc1ccccc1)NC(=O)OC[C@H]1O[C@@H](n2cc(C)c(=O)[nH]c2=O)C[C@@H]1N=[N+]=[N-] ; strain or isolate: LAI ; cell line: PBMC ; value: 3 µM
CCc1c(Sc2ccccn2)n(COCc2ccccc2)c(=O)[nH]c1=O ; changes: RT-L100I ; strain or isolate: Dihydrocostatolide-resistant (RT-L100I) ; cell line: CEM + CEM-SS ; value: 0.08 µM
COc1cc([C@@H]2c3cc4c(cc3CC3COC(=O)C32)OCO4)cc(OC)c1OC ; strain or isolate: IIIB ; cell line: MT-2 ; value: >0.01 µg/mL
CC(n1ccc(=O)[nH]c1=O)C1(COCP(=O)(O)O)CC1 ; cell line: CEM ; value: >100 µM
O=c1[nH]cc(C2C=CC(CO)(CO)C2)c(=O)[nH]1 ; cell line: CEM ; value: 34.8 µM
CCCc1cc(=O)oc2c3c(c4c(c12)OC(C)(C)C=C4)O[C@H](C)[C@@H](C)[C@@H]3O ; changes: RT-V106I ; strain or isolate: NL4-3 ; cell line: CEM + CEM-SS ; value: 0.2 µM
C=C(COCP(=O)(O)O)C(C)n1cnc2c(=O)[nH]c(N)nc21 ; cell line: CEM ; value: 32.4 µM
COC(=O)[C@H](Cc1ccccc1)NP(=O)(O)OC[C@H]1O[C@@H](n2cc(C)c(=O)[nH]c2=O)C[C@@H]1N=[N+]=[N-] ; strain or isolate: LAI ; cell line: PBMC ; value: 0.18 µM
O=NNc1ccc(S(=O)(=O)c2ccc(NN=O)cc2)cc1 ; strain or isolate: RF ; cell line: CEM + CEM-SS ; value: >100 µg/mL
COc1cc([C@@H]2c3cc4c(cc3[C@@H](O[C@@H]3O[C@@H]5CO[C@@H](C)O[C@H]5[C@H](O)[C@H]3O)[C@H]3COC(=O)[C@H]23)OCO4)cc(OC)c1O ; strain or isolate: IIIB ; cell line: MT-2 ; value: 0.06 µg/mL
COC(=O)[C@H](Cc1c[nH]c2ccccc12)NC(=O)OC[C@H]1O[C@@H](n2cc(C)c(=O)[nH]c2=O)C[C@@H]1N=[N+]=[N-] ; strain or isolate: LAI ; cell line: PBMC ; value: 10 µM
Cc1cn([C@H]2C=C[C@@H](CO)O2)c(=O)[nH]c1=O ; strain or isolate: IIIB ; cell line: MT-2 ; value: 4.8 µM
CCCc1cc(=O)oc2c3c(c4c(c12)OC(C)(C)C=C4)O[C@H](C)[C@@H](C)[C@H]3OC ; strain or isolate: RF ; cell line: CEM + CEM-SS ; value: >10 µM
O=c1[nH]cnc2c1ncn2[C@H]1CC[C@@H](CO)O1 ; strain or isolate: HXB2D ; cell line: MT-2 ; value: 4 ± 0.5 µM
C[C@H](Cn1cnc2c(N)ncnc21)OCP(=O)(O)O ; strain or isolate: IIIB ; cell line: MT-2 ; value: 0.015 µM
C=C(COCP(=O)(O)O)C(C)n1cnc2c(N)ncnc21 ; cell line: CEM ; value: 80 µM
O=[N+]([O-])c1cc(S(=O)(=O)c2ccc(F)c([N+](=O)[O-])c2)ccc1F ; strain or isolate: RF ; cell line: CEM + CEM-SS ; value: >100 µg/mL
CC(n1ccc(N)nc1=O)C1(COCP(=O)(O)O)CC1 ; cell line: CEM ; value: 37.2 µM
CNc1ccc(Cl)cc1S(=O)(=O)c1ccccc1[N+](=O)[O-] ; strain or isolate: RF ; cell line: CEM + CEM-SS ; value: 0.3 µM

The last 4 rows once more:

C=C(COCP(=O)(O)O)C(C)n1cnc2c(N)ncnc21 ; cell line: CEM ; value: 80 µM
O=[N+]([O-])c1cc(S(=O)(=O)c2ccc(F)c([N+](=O)[O-])c2)ccc1F ; strain or isolate: RF ; cell line: CEM + CEM-SS ; value: >100 µg/mL
CC(n1ccc(N)nc1=O)C1(COCP(=O)(O)O)CC1 ; cell line: CEM ; value: 37.2 µM
CNc1ccc(Cl)cc1S(=O)(=O)c1ccccc1[N+](=O)[O-] ; strain or isolate: RF ; cell line: CEM + CEM-SS ; value: 0.3 µM

ECn: concentration that inhibits the pathogen or its effect by n%.